Measured values from several laboratories, pooled; numbers as filed in NIAID ChemDB.

All rows: growth or infection tests; species: HIV-1; read by: ELISA; measure: EC50

ECn: concentration that inhibits the pathogen or its effect by n%. Lines come from different laboratories, so protocols vary. An empty or dashed field is not shown. Two numbers with a dash give a range or band.

CC1(C)C=Cc2c(cc(O)c3c2O[C@H](c2ccc(O)cc2)CC3=O)O1 ; cell line: C8166 ; strain: IIIB ; result: 30.1 µM
Cc1cn([C@H]2C[C@H](N=[N+]=[N-])[C@@H](COP(=O)(N[C@@H](C)C(=O)OCc3ccccc3)OCC(Cl)(Cl)Cl)O2)c(=O)[nH]c1=O ; cell line: C8166 ; strain: RF ; result: 0.03 µM
CCOC(=O)c1cc(C(=O)c2ccc(O)cc2)n2ccc(C(=O)NCc3ccccn3)cc12 ; cell line: H9 ; strain: NL4-3 ; result: 35.2 µM
CC(C)CN(C[C@@H](O)[C@H](Cc1cc(F)cc(F)c1)NC(=O)OC1C[C@H]2C[C@H]3C1CO[C@H]3O2)S(=O)(=O)c1ccc2nc(NC3CC3)sc2c1 ; cell line: MT-4 ; strain: NL4-3 ; result: 0.000034 µM
CS[C@@]1(Cc2ccccc2)NC(=O)[C@@](Cc2ccccc2O)(SC)NC1=O ; cell line: 293T ; strain: NL4-3 ; result: 4.9 µM
CCOP(=O)(NCCCCCC(=O)OC)OC[C@H]1O[C@@H](n2cc(C)c(=O)[nH]c2=O)C[C@@H]1N=[N+]=[N-] ; cell line: C8166 ; strain: RF ; result: 100 µM
CN(C)c1nc(-c2cccnc2)nc2ccc(OS(=O)(=O)O)cc12 ; cell line: MT-4 ; strain: NL4-3 ; result: >10 µM
[N-]=[N+]=N[C@H]1C[C@H](N2C(=O)NC(=O)/C2=C/c2ccccc2)O[C@@H]1CO ; cell line: MT-4 ; strain: IIIB ; result: >100 µM
CCN(CC)CCNc1ccnc(NCCCNC(=O)c2cccc(C(=O)NCCCNc3nccc(NCCN(CC)CC)n3)c2)n1 ; cell line: HUT34/HIV-1 + HUT34 ; result: >10 µM
COC(=O)c1ccc(OCc2cnc(CS(=O)c3nc4ccccc4[nH]3)c(C)c2)c(OC)c1 ; cell line: HEK293T ; strain: Clinical isolates ; result: 3.5 µM
N=C1Sc2ccccc2C2=NCCCN12 ; cell line: PBMC ; strain: 92RW016 ; result: 0.22 µM
CCOC(=O)c1cc(C(=O)NCc2ccccn2)n2ccc(C(=O)c3ccco3)cc12 ; cell line: H9 ; strain: NL4-3 ; result: 42.1 µM
CCOP(=O)(N[C@@H](CC(C)C)C(=O)OC)OC[C@H]1O[C@@H](n2cc(C)c(=O)[nH]c2=O)C[C@@H]1N=[N+]=[N-] ; cell line: C8166 ; strain: RF ; result: 30 µM
COC(=O)[C@H](C)NP(=O)(OC[C@H]1O[C@@H](n2cc(C)c(=O)[nH]c2=O)C[C@@H]1N=[N+]=[N-])OCC(Cl)(Cl)Cl ; cell line: C8166 ; strain: RF ; result: 0.1 µM
Cc1cc(OCCCOc2ccc(-c3cccc(C#N)c3)cc2)cnc1CS(=O)c1nc2ccccc2[nH]1 ; cell line: HEK293T ; strain: Clinical isolates ; result: 5 µM
Cc1cc(Nc2nc(-c3cccnc3)nc3ccccc23)c(Cl)cc1F ; cell line: MT-4 ; strain: NL4-3 ; result: 10 µM
Cc1cc(OCCCOc2ccc(-c3cccc(C(=O)O)c3)cc2)cnc1CS(=O)c1nc2ccccc2[nH]1 ; cell line: HEK293T ; strain: Clinical isolates ; result: 5 µM
CCOC(=O)c1cc(C(=O)c2ccccc2)n2ccc(C(=O)NCc3ccco3)cc12 ; cell line: H9 ; strain: NL4-3 ; result: 19.3 µM
Cc1cn([C@H]2C[C@H](N=[N+]=[N-])[C@@H](COP(=O)(N[C@@H](C)C(=O)OC3CCCCC3)Oc3ccccc3)O2)c(=O)[nH]c1=O ; cell line: C8166 ; strain: RF ; result: 0.4 µM
CCOC(=O)c1cc(C(=O)c2ccc(F)cc2)n2ccc(C(=O)NCc3ccccn3)cc12 ; cell line: H9 ; strain: NL4-3 ; result: 54.4 µM
CN1C(=O)[C@H](c2cc(Cl)c(O)c(Cl)c2)NC(=O)[C@H]2NC(=O)[C@H](c3cc(Cl)c(O)c(Cl)c3)NC(=O)[C@H](NC(=O)C(=O)c3cc(Cl)c(O)c(Cl)c3)c3c[nH]c4ccc(cc34)-c3cc2cc(c3O)Oc2ccc(cc2)C[C@@H]1C(=O)N[C@H](C(=O)O)c1ccc(O)cc1 ; cell line: CD4+ T-cell ; strain: Clinical isolate ; result: <1.3 µM
CC1(C)O[C@H]2CC(=O)OC[C@]23[C@H]2CC[C@@]4(C)[C@H](c5ccoc5)OC(=O)[C@H]5O[C@]54[C@]2(C)C(=O)C[C@@H]13 ; cell line: C8166 ; strain: IIIB ; result: >340.4 µM
Cn1cc(C(=O)O)c(=O)c2cc(F)c(N3CC=C(c4ccccc4)CC3)c(C(F)(F)F)c21 ; cell line: MOLT-4 ; strain: IIIB ; result: 74 µM
CCCCC/C=C/C=C1/C(=O)CCC1C/C=C\CCCC(=O)O ; cell line: U-937 ; result: 3.1 µM
Cc1cc(=O)c2c(O)c3c(O)cc(O)c4c5c(O)cc(O)c6c(O)c7c(=O)cc(C)c8c1c2c(c34)c(c65)c78 ; cell line: CEM ; conditions: 14 d ; result: <1 µg/mL
COC(=O)c1cccc(-c2ccc(COc3cnc(CS(=O)c4nc5ccccc5[nH]4)c(C)c3)cc2)c1 ; cell line: HEK293T ; strain: Clinical isolates ; result: 0.5 µM
C=C(C)C1Cc2cc3ccc(=O)oc3cc2O1 ; cell line: C8166 ; strain: IIIB ; result: 145.8 µM
NC(=O)c1c(F)cccc1Nc1nc(-c2ccccn2)nc2ccccc12 ; cell line: MT-4 ; strain: NL4-3 ; result: <5 µM
CCOP(=O)(NCCC(=O)OC)OC[C@H]1O[C@@H](n2cc(C)c(=O)[nH]c2=O)C[C@@H]1N=[N+]=[N-] ; cell line: C8166 ; strain: RF ; result: 20 µM
CCN(CC)CCNc1nc(NCCCNC(=O)c2cccc(C(=O)NCCCNc3nc4c(c(NCCN(CC)CC)n3)CC=CC4)c2)nc2c1CC=CC2 ; cell line: H9 ; conditions: 6 d ; strain: MN ; result: 0.05–0.15 µM
CCCNP(=O)(NCCC)OC[C@H]1O[C@@H](n2cc(C)c(=O)[nH]c2=O)C[C@@H]1N=[N+]=[N-] ; cell line: C8166 ; strain: RF ; result: 15 µM
CCOC(=O)c1cc(C(=O)c2cccc(N)c2)n2ccc(C(=O)NCc3ccccn3)cc12 ; cell line: H9 ; strain: NL4-3 ; result: 22.3 µM
CNc1ccc(C#N)cc1Nc1c2ccccc2nc(-c2cccnc2)[n+]1C ; cell line: MT-4 ; strain: NL4-3 ; result: >10 µM
CCOP(=O)(N[C@@H](C)C(=O)OCc1ccccc1)OC[C@H]1O[C@@H](n2cc(C)c(=O)[nH]c2=O)C[C@@H]1N=[N+]=[N-] ; cell line: C8166 ; strain: RF ; result: 3 µM
Cc1cn([C@H]2C=C[C@@H](OCP(=O)(O)O)O2)c(=O)[nH]c1=O ; cell line: CEM-F + CEM ; strain: LAI ; result: 1.8 µg/mL
COC(=O)CNP(=O)(NCC(=O)OC)OC[C@H]1O[C@@H](n2cc(C)c(=O)[nH]c2=O)C[C@@H]1N=[N+]=[N-] ; cell line: C8166 ; strain: RF ; result: 0.5 µM
CCOC(=O)c1cccc(Nc2nc(-c3cccnc3)nc3ccccc23)c1 ; cell line: MT-4 ; strain: NL4-3 ; result: 2 µM
COC(=O)c1cccc(-c2ccc(OCc3cnc(CS(=O)c4nc5ccccc5[nH]4)c(C)c3)cc2)c1 ; cell line: HEK293T ; strain: Clinical isolates ; result: 6.5 µM
Nc1ncnc2c1ncn2[C@H]1C=C[C@@H](OCP(=O)(O)O)O1 ; cell line: CEM-F + CEM ; strain: LAI ; result: 45 µM
Fc1cc(F)c(Nc2nc(-c3cccnc3)nc3ccccc23)cc1Br ; cell line: MT-4 ; strain: NL4-3 ; result: 15 µM
O=C1C=C(c2ccc(O)cc2)OC2C=C(O)C=C(O)C12 ; cell line: C8166 ; strain: IIIB ; result: 203.3 µM
CCOC(=O)c1cc(C(=O)c2ccccc2)n2ccc(C(=O)N[C@@H](C(=O)OC)c3ccccc3)cc12 ; cell line: H9 ; strain: NL4-3 ; result: 49.5 µM
Cc1cn([C@H]2C[C@H](N=[N+]=[N-])[C@@H](COC(=O)OC[C@@H]3O[C@H]3CO)O2)c(=O)[nH]c1=O ; cell line: PBMC ; strain: BaL ; result: 0.066 µM
CCCNP(=O)(OCC)OC[C@H]1O[C@@H](n2cc(C)c(=O)[nH]c2=O)C[C@@H]1N=[N+]=[N-] ; cell line: C8166 ; strain: RF ; result: 50 µM
O=c1[nH]c(-c2cccnc2)nc2ccc(O)cc12 ; cell line: MT-4 ; strain: NL4-3 ; result: 17 µM
C/C=C1/C(=O)NC(=O)N1[C@H]1C[C@H](N=[N+]=[N-])[C@@H](CO)O1 ; cell line: MT-4 ; strain: IIIB ; result: >10 µM
COc1cc(-c2cccnc2)nc2ccccc12 ; cell line: MT-4 ; strain: NL4-3 ; result: 10–15 µM
COc1cc(OC)c2ccc(=O)oc2c1 ; cell line: C8166 ; strain: IIIB ; result: 33.8 µM
COC(=O)c1ccc(OCCCOc2ccnc(CSc3nc4ccccc4[nH]3)c2C)cc1OC ; cell line: HEK293T ; strain: Clinical isolates ; result: 3 µM

The last 6 rows once more:

smiles | cell line | conditions | strain | result
CCCNP(=O)(OCC)OC[C@H]1O[C@@H](n2cc(C)c(=O)[nH]c2=O)C[C@@H]1N=[N+]=[N-] | C8166 |  | RF | 50 µM
O=c1[nH]c(-c2cccnc2)nc2ccc(O)cc12 | MT-4 |  | NL4-3 | 17 µM
C/C=C1/C(=O)NC(=O)N1[C@H]1C[C@H](N=[N+]=[N-])[C@@H](CO)O1 | MT-4 |  | IIIB | >10 µM
COc1cc(-c2cccnc2)nc2ccccc12 | MT-4 |  | NL4-3 | 10–15 µM
COc1cc(OC)c2ccc(=O)oc2c1 | C8166 |  | IIIB | 33.8 µM
COC(=O)c1ccc(OCCCOc2ccnc(CSc3nc4ccccc4[nH]3)c2C)cc1OC | HEK293T |  | Clinical isolates | 3 µM